Reference: PubChem BioAssay AID504761 (Drosophila RNAi Screening Center, 2011)
The deposit covers about 22,000 reagents; shown is an unselected part of those that have a named target and a result. Of all reagents, 116 (0.52%) are marked active. 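Calls depend on retest data that are not deposited; infection was ranked per plate without normalising between plates; the unit of the infection score is not given.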 The raw values are shown without normalisation. Entries without a mark were called inactive. Not stated in the record: the amount of reagent, the time to read-out.

Purpose: 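Insect host genes that dengue virus relies on to spread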 (primary screen)
Cells: D.Mel-2 cells from Drosophila
Reagent: long dsRNA against Drosophila genes
Conditions: infection with dengue virus type 2; dose and infection time not stated
Measured: 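Per well on two replicate plates, imaging gave the percent of cells positive for viral envelope protein, ranked by infection, and a nuclear count of cells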
Direction: infection score: higher = more virus-infected cells; cell count: higher = more cells in the well
Rule for the call: 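Low infection ranks in the two replicates (chance level up to 0.065) followed by a retest with a 1.5-fold or larger significant decrease, p below 0.05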
Calls: active = confirmed: knock-down lowers infection; inactive = not picked or not confirmed

gene	dsRNA	infection score, replicate 1	infection score, replicate 2	cell count, replicate 1	cell count, replicate 2
mspo (GeneID 36632)	DRSC07652	15.6	14.9	6227	6162
mspo (GeneID 36632)	DRSC28194	24.2	32.6	2339	6005
RhoGAPp190 (GeneID 32743)	DRSC20097	5.2	8.81	6037	5994
RhoGAPp190 (GeneID 32743)	DRSC20099	8.1	5.11	5261	5795
Obp56e (GeneID 37267)	DRSC07188	5.02	6.28	5902	6464
CSN7 (GeneID 35816)	DRSC06807	31.8	22.2	3260	5192
CSN7 (GeneID 35816)	DRSC06808	6.98	10.5	6006	6367
Gpb5 (GeneID 3355097)	DRSC21241	32.8	20.7	4081	4900
LManVI (GeneID 34206)	DRSC03224	2.89	1.83	6644	6768
LManVI (GeneID 34206)	DRSC27521	4.54	15.1	6874	6588
Spf30 (GeneID 7354399)	DRSC11976	4.93	4.36	4681	4706
Shab (GeneID 38352)	DRSC08013	2.62	2.71	6269	5532
Shab (GeneID 38352)	DRSC08643	3.26	1.02	6014	6491
Shab (GeneID 38352)	DRSC08699	9.07	8.53	6249	3894
Shab (GeneID 38352)	DRSC28359	11.8	9.03	5172	5547
CG1314 (GeneID 33066)	DRSC20495	9.43	2.65	6339	6217
CG15471 (GeneID 31412)	DRSC18054	5.1	20.7	960	5799
CG15471 (GeneID 31412)	DRSC26243	2.68	2.58	5682	5934
CG31093 (GeneID 43116)	DRSC15689	0.63	2.1	6530	6228
CG30187 (GeneID 246509)	DRSC22461	2.66	6.49	6233	6413
GlcT (GeneID 37516)	DRSC04525	2.79	24.4	6485	6095
GlcT (GeneID 37516)	DRSC27991	9.45	5.31	6358	6289
Papst2 (GeneID 39914)	DRSC10924	3.6	6.53	1139	7060
Papst2 (GeneID 39914)	DRSC27212	23.7	3.57	6409	6210
CG13160 (GeneID 36343)	DRSC06284	15	3.54	6419	6275
asRNA:CR31084 (GeneID 10178907)	DRSC21649	1.2	1.81	5988	6337
CG33137 (GeneID 36449)	DRSC22131	3.08	16	6550	6434
CG31872 (GeneID 34458)	DRSC02568	2.99	1.9	6730	6574
CG31872 (GeneID 34458)	DRSC02572	9.22	5.74	6419	6570
neo (GeneID 43523)	DRSC16316	9.04	3.12	6164	6380
neo (GeneID 43523)	DRSC24164	6.48	22.3	6497	5610
MetRS (GeneID 37177)	DRSC22533	4.72	4.61	6037	6444
CG14187 (GeneID 40199)	DRSC10186	4.4	3.17	6181	6489
CG14187 (GeneID 40199)	DRSC26776	7.05	8.47	6399	6519
CG10814 (GeneID 36481)	DRSC06004	12.7	22.2	6120	5050
Cap-D2 (GeneID 43491)	DRSC15401	6.04	8.71	5914	6237
Cap-D2 (GeneID 43491)	DRSC24096	1.68	6.76	4576	4246
Nop17l (GeneID 35730)	DRSC06556	4.3	29.4	5738	5202
Nop17l (GeneID 35730)	DRSC29430		19.1	242	5387
